Measured values from several laboratories, pooled; numbers as filed in NIAID ChemDB.

All rows: growth or infection tests

ECn is the concentration giving n% inhibition of infection, replication or growth. An empty or dashed field is not shown. Percent inhibition refers to the dose given; in toxicity tests it is the harm to the cells. Rows are shuffled and stem from different studies.

Nc1nc2c(ncn2COC(CO)CO)c(=O)[nH]1 ; species: Human cytomegalovirus ; read-out: EC95 ; method: virus yield ; strain: C4 (D341E) ; result: 1.8 µM
C=C1[C@H](CO)[C@@H](O)C[C@@H]1n1cnc2c(=O)[nH]c(N)nc21 ; species: Human papillomavirus ; read-out: EC50 ; cell line: WI-38 ; method: plaque count ; result: 2.8 µM
Nc1ccn(C[C@H]2COP(=O)(O)CO2)c(=O)n1.O=C(O)P(=O)(O)O ; species: Human cytomegalovirus ; read-out: EC75 ; cell line: MRC-5 ; method: plaque count ; strain: Towne (ganciclovir- foscarnet-susceptible) ; result: 0.81 µM
Cc1c(S(=O)(=O)c2ccc(Cl)cc2)c(NC(=O)C(F)(F)F)n(Cc2ccc(Cl)cc2)c1C ; species: Human herpesvirus 6 ; read-out: EC50 ; cell line: HSB-2 ; method: hybridisation ; strain: GS (TYPE 6A) ; result: ≥10 µg/mL
Nc1nc2c(ncn2[C@@H]2C[C@H](CO)[C@H]2CO)c(=O)[nH]1.O=C(O)P(=O)(O)O ; species: Human cytomegalovirus ; read-out: EC75 ; cell line: MRC-5 ; method: plaque count ; strain: AD169 (ganciclovir foscarnet-susceptible) ; result: 0.99 µM
N#CC1C(c2ccccc2)Nc2ccccc2S1(=O)=O ; species: Human herpesvirus 6 ; read-out: EC50 ; cell line: MOLT-3 ; method: cytopathic effect ; strain: Z29 (TYPE 6B) ; result: >20 µg/mL
Nc1nc2c(ncn2CCC(CO)CO)c(=O)[nH]1 ; species: Human herpesvirus 7 ; read-out: inhibition ; cell line: HUMAN CORD BLOOD CELLS ; dose: 50 µM ; method: antigen ; strain: SB ; result: 29%
Nc1ccn([C@@H]2C[C@H](CO)[C@@H](O)[C@H]2O)c(=O)n1 ; species: Human coronavirus ; read-out: EC50 ; cell line: WI-38 ; method: cytopathic effect ; strain: Strain 229E 229E ; result: 7 µg/mL
CO[C@H]1[C@@H](OC)C[C@H](C)[C@@H](OC)C2=CC(=O)C=C(NC(=O)/C(C)=C/C=C/[C@H](OC)[C@@H](OC(N)=O)/C(C)=C/[C@@H]1C)C2=O ; species: Human herpesvirus 6 ; read-out: EC50 ; cell line: HSB-2 ; method: hybridisation ; strain: TYPE A (GS) ; result: 0.0322 µM
CC(=O)N[C@@H](CC(C)C)C(=O)N[C@@H](CC(C)C)C(=O)N[C@H](C=O)CCCN=C(N)N ; species: Human coronavirus ; read-out: EC50 ; cell line: MRC-C ; method: plaque count ; strain: 229E 229E ; result: 0.4 µg/mL
O=C(O)C1=CC(=C(c2ccc(O)c(C(=O)O)c2)c2ccc(O)c(C(=O)O)c2)C=CC1=O ; species: Human herpesvirus 7 ; read-out: EC50 ; cell line: SupT1 ; method: syncytia ; result: 2.8 µM
Nc1ccn(C[C@@H](CO)OCP(=O)(O)O)c(=O)n1 ; species: Human cytomegalovirus ; read-out: EC75 ; cell line: MRC-5 ; method: plaque count ; strain: PC92 (ganciclovir- foscarnet-susceptible) ; result: 0.61 µM
Cn1cc(C(=O)NCc2ccc(Cl)cc2)c(=O)c2cc(CN3CCOCC3)ccc21 ; species: Human cytomegalovirus ; read-out: inhibition ; cell line: HFF ; dose: 6.5 µM ; method: plaque count ; strain: WA ; result: 90%
NC1=NC2C(C=CN2CC(CO)CCO)C(=O)N1 ; species: Human herpesvirus 7 ; read-out: EC50 ; cell line: CD4+ T lymphocytes ; method: syncytia ; result: >230 µM
O=C(NCc1ccc(Cl)cc1)c1c[nH]c2ccc(CCCO)cc2c1=O ; species: Human cytomegalovirus ; read-out: EC50 ; method: plaque count ; strain: LYS ; result: 1.3 µM
Nc1nc2c(ncn2C[C@]2(CO)C[C@H]2CO)c(=O)[nH]1 ; species: Human herpesvirus 6 ; read-out: EC50 ; cell line: MOLT-3 ; method: cytopathic effect ; strain: TYPE 6A ; result: 2.6 µg/mL
Nc1nc2c(ncn2COC(CO)CO)c(=O)[nH]1 ; species: Human cytomegalovirus ; read-out: EC50 ; cell line: MRC-5 ; method: hybridisation ; strain: 1038RB (ASP344GLU AND ALA355VAL) ; result: 0.24 µM
Nc1nc2c(ncn2COC(CO)CO)c(=O)[nH]1 ; species: Human herpesvirus 7 ; read-out: EC50 ; cell line: SupT1 ; method: syncytia ; result: >50 µM
CC(C)Nc1nc2cc(Cl)c(Cl)cc2n1[C@H]1O[C@@H](CO)[C@H](O)[C@@H]1O ; species: Human cytomegalovirus ; read-out: EC50 ; cell line: MRC-5 ; method: hybridisation ; strain: C8501 ; result: 0.1 µM
Cc1c(S(=O)(=O)c2ccc(Cl)cc2)c(NC(=O)C(F)(F)F)n(Cc2ccccc2)c1C ; species: Human herpesvirus 6 ; read-out: EC50 ; cell line: MOLT-3 ; method: hybridisation ; strain: Z29 (TYPE 6B) ; result: 10 µg/mL
Nc1ncc2c(ncn2COC(CO)CO)n1 ; species: Human herpesvirus 7 ; read-out: EC50 ; cell line: SupT1 ; method: syncytia ; result: 0.0001 µM
Cc1ccc2ncnc(Nc3ccc(Cl)c(Cl)c3)c2c1 ; species: Human cytomegalovirus ; read-out: inhibition ; cell line: HFF ; dose: 10 µM ; method: flow cytometry ; strain: AD169-GFP ; result: 95.2%
Nc1nc2c(ncn2[C@@H]2C[C@H](CO)[C@H]2CO)c(=O)[nH]1 ; species: Human herpesvirus 7 ; read-out: EC50 ; cell line: CD4+ T lymphocytes ; method: syncytia ; result: 4.5 µM
Nc1nc2c(ncn2C=C2CC2CO)c(=O)[nH]1 ; species: Human cytomegalovirus ; read-out: EC90 ; method: plaque count ; strain: VR4990 (ganciclovir-resistant) ; result: 2.6 µM
Nc1ccn(C[C@H]2COP(=O)(O)CO2)c(=O)n1 ; species: Human cytomegalovirus ; read-out: EC75 ; cell line: MRC-5 ; method: plaque count ; strain: AD169 (ganciclovir foscarnet-susceptible) ; result: 0.76 µM
O=c1[nH]c(=O)n([C@H]2C[C@H](O)[C@@H](CO)O2)cc1/C=C/Br ; species: Human herpesvirus 7 ; read-out: EC50 ; cell line: SupT1 ; method: syncytia ; result: >20 µM

The last 2 rows once more:

compound,species,read-out,cell line,dose,method,strain,result
Nc1ccn(C[C@H]2COP(=O)(O)CO2)c(=O)n1,Human cytomegalovirus,EC75,MRC-5,-,plaque count,AD169 (ganciclovir foscarnet-susceptible),0.76 µM
O=c1[nH]c(=O)n([C@H]2C[C@H](O)[C@@H](CO)O2)cc1/C=C/Br,Human herpesvirus 7,EC50,SupT1,-,syncytia,-,>20 µM